Measured values from several laboratories, pooled; numbers as filed in NIAID ChemDB.

All rows: whole-cell or culture tests; species: Candida albicans

Rows are shuffled and stem from different studies. MIC50, MIC90 and the like: level of inhibition, or share of isolates inhibited. ECn is the concentration giving n% inhibition of infection, replication or growth. An empty or dashed field is not shown.

smiles,setting,measure,method,strain or isolate,value
O=C1C(=Nc2cccc(Cc3cccc(N=C4C(=O)N(Cc5ccccc5)c5ccccc54)c3)c2)c2ccccc2N1Cc1ccccc1,,MIC,,CIP 1180-79,<50 µg/mL
COc1ccc2c(c1OC)CN(C)c1c-2ccc2cc3c(cc12)OCO3,,MIC,,ATCC 10231,18.7 µg/mL
Cc1ccc(C(C)C)c(O)c1,,EC50,broth dilution / turbidity,ATCC 10231,0.51 µM
CCCCCCCCCCCC(=O)OC1CC[C@@]2(C)C(=CCC3C2CC[C@@]2(C)C3CC[C@@H]2[C@H](C)CCCC(C)C)C1,,MIC,,,>100 µg/mL
O=C1/C(=C/c2ccccc2)CNC/C1=C\c1ccccc1,,MIC,,1 clinical isolate,>32 µg/mL
Cc1cnccc1CCCc1ccccc1,,MIC,,2005E,8 µg/mL
O=c1c(-c2ccc(O)cc2)coc2cc(OCCCN3CCOCC3)cc(O)c12,,MIC,MTT,,>50 µg/mL
COc1cc(O)c2c(c1)C(=O)c1c(cc3c(c1O)-c1c(cc(C)c(C(=O)NC(CO)C(=O)O)c1O)[C@H](OC1OC(C)C(O)C(OC4OCC(O)C(O)C4O)C1O)C3O)C2=O,,MIC,,ATCC 32354,3.1 µg/mL
CCCN(CCC)CCOc1cc(O)c2c(=O)c(-c3ccc(O)cc3)coc2c1,,MIC,MTT,,>50 µg/mL
Cc1c(N2C[C@@H](CN)[C@H](C(F)(F)F)C2)c(F)cn2c(=O)c(C(=O)O)cc(C3CC3)c12.Cl,,MIC,,CCH442,>100 µg/mL
CCCCCCCCC/C=C\CCCCC(=O)O,,MIC,,,49 µg/mL
S=C([S][Sn]([S]C(=S)N1CCCC1)([c]1ccccc1)[c]1ccccc1)N1CCCC1,,MIC,,Drug-resistant isolate,25 µg/mL
O=c1c(-c2ccc(O)cc2)coc2cc(OCCCn3cnc4ccccc43)cc(O)c12,,MIC,MTT,,>50 µg/mL
CCCCCCCCCCCCN,,MIC,,,112 µg/mL
C=CC[C@@H]1/C=C(/C)C[C@H](C)C[C@H](OC)[C@H]2O[C@@](O)(C(=O)C(=O)N3CCCC[C@H]3C(=O)O[C@H](/C(C)=C/[C@@H]3CC[C@@H](O)[C@H](OC)C3)[C@H](C)[C@@H](O)CC1=O)[C@H](C)C[C@@H]2OC,,MIC,,DAY364 (genotype CNB1/CNB1),>3.12 µg/mL
CCc1ccc2c(c1)C(=Nc1c(CC)cc(Cc3cc(CC)c(N=C4C(=O)N(CC)c5ccc(CC)cc54)c(CC)c3Cl)c(Cl)c1CC)C(=O)N2CC,,MIC,,CIP 1180-79,<50 µg/mL
CNCC1COC2(CCN(c3c(F)cn4c(=O)c(C(=O)O)cc(C5CC5)c4c3C)CC2)O1.Cl,,MIC,,CCH442,>100 µg/mL
O=C1Nc2ccccc2C1=Nc1cccc(Cc2cccc(N=C3C(=O)Nc4ccccc43)c2)c1,,MIC,,CIP 1180-79,<50 µg/mL
O=Cc1cccc(O)c1O,,EC50,broth dilution / turbidity,ATCC 10231,0.05 µM
O=C1C(=Nc2ccc(Oc3ccc(N=C4C(=O)N(Cc5ccccc5)c5ccccc54)cc3)cc2)c2ccccc2N1Cc1ccccc1,,MIC,,CIP 1180-79,<50 µg/mL
Oc1cccc2cc(Cl)cnc12,24 h,MIC,,ATCC 60913,50 µg/mL
Cc1ccc(C(=O)/C=C/c2ccc(C(=O)O)cc2)cc1C,,MIC,,1 clinical isolate,>32 µg/mL
CN(C/C=C/C#CC(C)(C)C)Cc1cccc2ccccc12,,MIC50,,CI_4,4 µg/mL
O=C1Nc2ccc(F)cc2C1=Nc1ccc(Cc2ccc(N=C3C(=O)Nc4ccc(F)cc43)cc2)cc1,,MIC,,CIP 1180-79,<50 µg/mL
CCCCCCCCCCCC(=O)OCC(COC(=O)CCCCCCCCCCC)OC(=O)CCCCCCCCCCC,,MIC,,,>1000 µg/mL
O=c1c(-c2ccc(O)cc2)coc2cc(OCCN3CCNCC3)cc(O)c12,,MIC,MTT,,>50 µg/mL
CC[C@H](NC)[C@@H]1CCN(c2c(F)cn3c(=O)c(C(=O)O)cc(C4CC4)c3c2C)C1.Cl,,MIC,,CCH442,100 µg/mL
S=C([S][Sn]([c]1ccccc1)([c]1ccccc1)[c]1ccccc1)N1CCCC1,,MIC,,Drug-resistant isolate,1.25 µg/mL
CCCCC/C=C\C/C=C\CCCCCCCC(=O)O,,MIC,,,455 µg/mL
OC(Cn1cncn1)(Cn1cncn1)c1ccc(F)cc1F,,MIC,broth dilution,YL 370,>512 µg/mL
O=c1c(-c2ccc(O)cc2)coc2cc(OCCCCN3CCOCC3)cc(O)c12,,MIC,MTT,,>50 µg/mL
Oc1ccc(Cl)c2cccnc12,24 h,MIC,,ATCC 60913,6.2 µg/mL
N[C@@H](Cc1ccc(N(CCCl)CCCl)cc1)C(=O)O,,MIC,,1 clinical isolate,>32 µg/mL
C[C@@H]1[C@H](O)[C@@H](C)/C=C/C=C/CC/C=C/C=C/C=C/C=C/C(O[C@H]2O[C@H](C)[C@@H](O)[C@H](N)[C@@H]2O)CC2O[C@](O)(CC(O)C(O)CCC(O)CC(O)CC(O)CC(=O)O[C@H]1C)CC(O)C2C(=O)O,,MIC,broth dilution,CBS 562,7.8 µg/mL
CNCC1CCCN(c2c(F)cn3c(=O)c(C(=O)O)cc(C4CC4)c3c2C)C1.Cl,,MIC,,CCH442,>100 µg/mL
O=c1c(-c2ccc(O)cc2)coc2cc(OCCNCc3ccco3)cc(O)c12,,MIC,MTT,,>50 µg/mL
Cc1c(N2CC3CCC(C)(N)C3C2)c(F)cn2c(=O)c(C(=O)O)cc(C3CC3)c12.Cl,,MIC,,CCH442,>100 µg/mL
CCC[CH2][Sn]([CH2]CCC)([S]C(=S)N1CCCC1)[S]C(=S)N1CCCC1,,MIC,,Drug-resistant isolate,2.5 µg/mL
C[C@H](Cc1ccc(O)c(O)c1)[C@@H](C)Cc1ccc(O)c(O)c1,,MIC80,broth dilution,CCC 129-2000,250 µg/mL
S=C([S][Sn]([Cl])([Cl])[S]C(=S)N1CCCC1)N1CCCC1,,MIC,,ATCC 18804,50 µg/mL
CN1CCC2=C(CCCC2CCc2ccc(Cl)cc2Cl)C1,,MIC,,2402E,62 µg/mL
CN1CCN(CCOc2cc(O)c3c(=O)c(-c4ccc(O)cc4)coc3c2)CC1,,MIC,MTT,,>50 µg/mL
O=C1Nc2ccccc2C1=Nc1ccc(Oc2cccc(N=C3C(=O)Nc4ccccc43)c2)cc1,,MIC,,CIP 1180-79,<50 µg/mL
CCCCCCCCCCCC(=O)OCC(O)COC(=O)CCCCCCCCCCC,,MIC,,,>1000 µg/mL
C[C@H]1COc2c(N3CCC(O)C3)c(F)cn3c(=O)c(C(=O)O)cc1c23,,MIC,,CCH442,>100 µg/mL
Clc1ccc(CCC2CCCc3cnccc32)cc1Cl,,MIC,,C316,>125 µg/mL
O=c1c(-c2ccc(O)cc2)coc2cc(OCCCN3CCNCC3)cc(O)c12,,MIC,MTT,,>50 µg/mL
CCN(CC)C(=S)[S][Sn]([S]C(=S)N(CC)CC)([S]C(=S)N(CC)CC)[c]1ccccc1,,MIC,,ATCC 18804,>250 µg/mL
COc1ccc(C(=O)/C=C/c2ccc(C(=O)O)cc2)cc1OC,,MIC,,1 clinical isolate,>32 µg/mL
O=c1c(-c2ccc(O)cc2)coc2cc(OCCCCBr)cc(O)c12,,MIC,MTT,,>50 µg/mL
Oc1cc(Cl)cc2cccnc12,48 h,MIC,,ATCC 60913,12 µg/mL
O=C(O)c1ccc(/C=C/C(=O)c2ccc(Cl)cc2)cc1,,MIC,,1 clinical isolate,>32 µg/mL
O=Cc1cc(O)ccc1O,,EC50,broth dilution / turbidity,PYCC 3436,0.06 µM
Cc1ccc(/C=C/C(=O)N2C/C(=C\c3ccccc3)C(=O)/C(=C/c3ccccc3)C2)cc1,,MIC,,1 clinical isolate,>32 µg/mL
COc1cccc(CCC2CCCc3cnccc32)c1,,MIC,,C316,31 µg/mL

The first 4 rows once more:

smiles	setting	measure	method	strain or isolate	value
O=C1C(=Nc2cccc(Cc3cccc(N=C4C(=O)N(Cc5ccccc5)c5ccccc54)c3)c2)c2ccccc2N1Cc1ccccc1		MIC		CIP 1180-79	<50 µg/mL
COc1ccc2c(c1OC)CN(C)c1c-2ccc2cc3c(cc12)OCO3		MIC		ATCC 10231	18.7 µg/mL
Cc1ccc(C(C)C)c(O)c1		EC50	broth dilution / turbidity	ATCC 10231	0.51 µM
CCCCCCCCCCCC(=O)OC1CC[C@@]2(C)C(=CCC3C2CC[C@@]2(C)C3CC[C@@H]2[C@H](C)CCCC(C)C)C1		MIC			>100 µg/mL